Experiment: Selectivity index, ratio of TC50 for MDCK cells to IC50 for Influenza A virus A/95-359 infected in MDCK cells
Conditions: dog

Q: With CCOC(=O)C1=C[C@@H](OC(CC)CC)[C@H](NC(C)=O)[C@@H](N)C1 [OSELTAMIVIR] as the compound, how does the Selectivity Index read?
A: 773
